Test: Mobility-edited H(H)C ssNMR: membrane topology of lipid II-bound teixobactin
Conditions: for Peak integral, Lipid peak / Peak integral, Water peak: integral values from topspin; for Total integral: lipid + water peak; for (%) exposure, Lipid: lipid peak / total integral; for (%) exposure, Lipid / (%) exposure, Water: Extended Data Fig. 8d; for (%) exposure, Water: water peak / total integral; for Integral [abs], I5 L: residue I5, lipid peak; for Integral [abs], I5 W: residue I5, water peak
Description: T1rho trajectories were fit to single exponentials.
Extended Data Fig. 8 The membrane topology of the complex. a) and b) show mobility-edited (‘T2-filtered’) ^1H(^1H)^13C ssNMR experiments[37] of ^13C,^15N-teixobactin bound to Lipid II. […] For each residue, peak areas were integrated using Topspin 4.06. Signals that were used for the integration are annotated. e) Membrane topology visualized with the ssNMR structure. Hydrophilic (in blue) and hydrophobic (brown) residues are sharply separated above and below the β-sheet, respectively. Note that the N-terminal Phe1 at the rim of the β-sheet has higher water accessibility, potentially because of fraying and mobility effects. f) Normalized contacts to water and lipid-tails, back-calculated over the MD simulation based on our ssNMR structure. g) Membrane topology using a different structure of the calculated ssNMR ensemble. As shown in Extended Data Fig. 9a, the despi-cycle is plastic and can point up towards the water phase, bringing End10 well-above the membrane-plane. Source data

Q: What does the source list for teixobactin?
A: Peak integral, Lipid peak (residue En10): 2427300000 abs; Peak integral, Water peak (residue En10): 10975000000 abs; Total integral (residue En10): 13402300000 abs; (%) exposure, Lipid (residue En10): 0.1811%; (%) exposure, Water (residue En10): 0.8189%; Peak integral, Lipid peak (residue F1): 6219800000 abs; Peak integral, Water peak (residue F1): 11286000000 abs; Total integral (residue F1): 17505800000 abs; (%) exposure, Water (residue F1): 0.6447%; Peak integral, Lipid peak (residue I2): 4889800000 abs; Peak integral, Water peak (residue I2): 2150800000 abs; Total integral (residue I2): 7040600000 abs; (%) exposure, Lipid (residue I2): 0.6945%; (%) exposure, Water (residue I2): 0.3055%; Peak integral, Water peak (residue I5 (avg)): 6133400000 abs; Total integral (residue I5 (avg)): 31269600000 abs; (%) exposure, Lipid (residue I5 (avg)): 0.8039%; (%) exposure, Water (residue I5 (avg)): 0.1961%; Integral [abs], I5 L (first listed peak): 14909000000 abs; Integral [abs], I5 L (second listed peak): 4352100000 abs; Integral [abs], I5 L (third listed peak): 5875100000 abs; Integral [abs], I5 W (first listed peak): 2103100000 abs; Integral [abs], I5 W (second listed peak): 1331800000 abs; Integral [abs], I5 W (third listed peak): 2698500000 abs; Peak integral, Lipid peak (residue I6): 3461100000 abs; Peak integral, Water peak (residue I6): 507120000 abs; Total integral (residue I6): 3968220000 abs; (%) exposure, Lipid (residue I6): 0.8722%; (%) exposure, Water (residue I6): 0.1278%
